Measured values from several laboratories, pooled; numbers as filed in NIAID ChemDB.

Common to all: growth or infection tests; agent: HIV-1; endpoint: fold resistance

Fold resistance has wild type as its base.

structure,changes,method,cells,strain or isolate,result
O=C1Nc2ccc(F)c(F)c2[C@@](C#CC2CC2)(C(F)(F)F)N1,RT-Y188C,,,,<13.3
CC(C)=CCOc1cc(NC(=S)c2ccsc2C)ccc1Cl,RT-Y181C,cytopathic effect / XTT,CEM + CEM-SS,NL4-3 (RT Y181C),5
Cc1cc(C)cc(Sc2c(C(C)C)c(=O)[nH]c(=S)n2COCCO)c1,Nevirapine resistant (RT Y181C),syncytia,CEM,IIIB,56.7
CC(C)=CCOc1cc(NC(=S)c2ccoc2C)ccc1Cl,RT-V106I,cytopathic effect / XTT,CEM + CEM-SS,NL4-3 (RT V106I),16.7
O=C1Nc2ccc(Cl)cc2[C@@](C#CC2CC2)(C(F)(F)F)N1,RT-L100I,,,,3.16
N#Cc1cc(Cl)cc(Oc2c(Br)ccc(CC(=O)Nc3ccc(S(N)(=O)=O)cc3Cl)c2F)c1,M230L,,MT-4,,<1
Cc1cc2[nH]cnc2cc1NC(=O)COc1ccc(Cl)cc1C(=O)c1cc(F)cc(C(F)(F)F)c1,RT-V106I,β-galactosidase,HeLa + HELA CD4+,HXB2,~1
Cc1cc(C)cc(Cc2c(C(C)C)c(=O)[nH]c(=O)n2COCCO)c1,RT-E138K,syncytia,CEM,IIIB,3.12
CC(C)[C@H](NC(=O)OCc1ccccn1)C(=O)N[C@@H](Cc1ccccc1)[C@@H](O)C[C@H](Cc1ccccc1)NC(=O)OCc1cccnc1,PR-L10R M46I L63P,p24,MT-4,NL4-3,1
CC(C)c1c(Sc2ccccc2)n(COCc2ccccc2)c(=S)[nH]c1=O,RT-Y181C,syncytia,CEM,IIIB,100
CCc1cc(C#N)cc(C(=O)c2cc(Cl)ccc2OCC(=O)Nc2ccc(S(N)(=O)=O)cc2C)c1,RT-V106I,β-galactosidase,HeLa + HELA CD4+,HXB2,~1
C[C@@H]1CCO[C@H]2Cn3cc(C(=O)NCc4ccc(F)cc4F)c(=O)c(O)c3C(=O)N12,G118R,RT activity,CBMC,NL4-3,6.7
Cc1cc(NS(=O)(=O)CC2CCCCC2)c(C)c(C(OC(C)(C)C)C(=O)O)c1-c1ccc2c(c1)CCCO2,A128T,p24 / luminescence,MT-4,NL4-3,4
CCC(=O)c1ccc(F)c([C@@H]2C[C@@H]2NC(=O)Nc2ccc(C#N)cn2)c1O,NNRTI-resistant (RT V179F),β-galactosidase / luminescence,TZM-bl,LAI,0.1
CCCc1cc(=O)oc2c3c(c4c(c12)OC(C)(C)CC4)O[C@H](C)[C@@H](C)C3=O,RT-P236L,cytopathic effect / XTT,,,<6
CC(C)=CCOc1cc(NC(=S)c2ccoc2C)ccc1Cl,RT-V179D,p24,CEM + CEM-SS,NL4-3,1.33
Cc1cc(S(N)(=O)=O)ccc1NC(=O)COc1ccc(Cl)cc1C(=O)c1cc(F)cc(F)c1,RT-K103N,β-galactosidase,HeLa + HELA CD4+,HXB2,~1
CCOCn1c(Sc2ccccc2)c(CC)c(=O)[nH]c1=S,RT-Y181I,syncytia,CEM,IIIB,282
Cc1cc(C#N)cc(C(=O)c2cc(Cl)ccc2OCC(=O)Nc2ccc(OCCCN3CC=CC3)cc2C)c1,RT-K103N G190A,β-galactosidase,HeLa + HELA CD4+,HXB2 (RT-K103N G190A) Recombinant,~1
CCOCn1c(Cc2cc(C)cc(C)c2)c(CC)c(=O)[nH]c1=O,RT-K103N,syncytia,CEM,IIIB TIBO R82913-resistant (RT K103N),150
Cc1ccc(C2CC2)c(-c2ccc3c(c2)CCCO3)c1[C@H](OC(C)(C)C)C(=O)O,PI-resistant ARP-11803 (L33F/E34T/K43T/G48V/I54S/L63P/A71V/V82A),luminescence,MT-4,NL4-3,1

The first 3 rows once more:

structure,changes,method,cells,strain or isolate,result
O=C1Nc2ccc(F)c(F)c2[C@@](C#CC2CC2)(C(F)(F)F)N1,RT-Y188C,,,,<13.3
CC(C)=CCOc1cc(NC(=S)c2ccsc2C)ccc1Cl,RT-Y181C,cytopathic effect / XTT,CEM + CEM-SS,NL4-3 (RT Y181C),5
Cc1cc(C)cc(Sc2c(C(C)C)c(=O)[nH]c(=S)n2COCCO)c1,Nevirapine resistant (RT Y181C),syncytia,CEM,IIIB,56.7

Blank or dashed fields: not listed here. Rows are shuffled and stem from different studies.